Measured values from several laboratories, pooled; numbers as filed in NIAID ChemDB.

All rows: target-level tests; organism: Hepatitis C virus; target: NS5B polymerase; endpoint: IC50

Conditions beyond the fields shown may differ between rows.

| smiles | strain or isolate | result |
|---|---|---|
| O=C1NC(=S)NC(=O)C1Cc1ccc(-c2ccccc2C(F)(F)F)o1 | - | 0.056–83.5 µM |
| COC(=O)c1ccc2nc(-c3ccc(F)cc3)c(-c3ccc(F)cc3)nc2c1 | - | >50 µM |
| COc1ccc(C2C3=C(CC(C)(C)CC3=O)Nc3ccccc3N2C(C)=O)cc1OCc1ccccc1 | - | >15.9 µM |
| O=C(O)c1ccc(N2C(=O)/C(=C\c3ccc(-c4cc(C(F)(F)F)ccc4Cl)o3)SC2=S)cc1 | - | 0.056–83.5 µM |
| CC(C)Nc1nc(C[C@H](Cc2ccc(OCC(=O)O)cc2)NC(=O)c2ccc3c(c2)nc(-c2ccoc2)n3C2CCCCC2)cs1 | - | 1–5 µM |
| CCCC1(C(=O)O)CCCC2c3c(C#N)ccc(F)c3NC21 | - | 10 µM |
| CCC(=O)N1c2ccccc2NC2=C(C(=O)CC(c3ccc(OC)c(OC)c3)C2)C1c1ccccc1OC(C)CC | - | >33.3 µM |
| CC(=O)Nc1ccc(C(=O)N/C(=C\c2ccc(-c3ccccc3)o2)C(=O)O)cc1 | - | 11–30 µM |
| C[C@@H]1CCC[C@H](C)C1n1c(-c2ccoc2)nc2cc(C(=O)N[C@@H](Cc3c[nH]c4ccc(O)cc34)C(=O)O)ccc21 | - | <1 µM |
| Cn1c(C(=O)O)cc2cc(NC(=O)C3(NC(=O)c4ccc5c(c4)nc(-c4ccoc4)n5C4CCCCC4)CCCC3)ccc21 | - | <0.5 µM |
| CC(=O)N1c2ccccc2NC2=C(C(=O)CC(c3ccccc3OCc3ccccc3)C2)C1c1ccccc1 | - | >42.7 µM |
| Cc1c(Cl)cccc1S(=O)(=O)Nc1nc(C(=O)N[C@H]2CCCC[C@@H]2OCc2ccccc2)n(CC(=O)N[C@H]2CCCC[C@@H]2OCc2ccccc2)n1 | - | 0.1–1 µM |
| CC(C)CC(=O)N1c2ccccc2NC2=C(C(=O)CC(C)(C)C2)C1c1ccc(Cl)cc1 | - | >33.3 µM |
| C[C@@H](NC(=O)c1cc(C(=O)Nc2ccccc2OCc2ccccc2)n(CC(=O)N[C@H]2CCCC[C@@H]2OCc2ccccc2)n1)c1cccc2ccccc12 | - | 0.15 µM |
| NC(=O)[C@H](Cc1c[nH]c2ccc(O)cc12)NC(=O)c1ccc2nc(-c3ccc(F)cc3)c(-c3ccc(F)cc3)nc2c1 | - | <10 µM |
| COc1cc(C(=O)N2[C@@H](c3nccs3)[C@@H](c3cnccn3)C[C@@]2(CCS(C)(=O)=O)C(=O)O)ccc1C(C)(C)C | Genotype 1A | >1 µM |
| CCOC(=O)[C@H](Cc1ccc(-c2nn[nH]n2)cc1)NC(=O)c1ccc2c(c1)nc(-c1ccoc1)n2C1CCCCC1 | - | <1 µM |
| O=C(Cn1nc(NS(=O)(=O)Cc2ccc([N+](=O)[O-])cc2)cc1C(=O)N[C@H]1CCCC[C@@H]1OCc1ccccc1)N[C@H]1CCCC[C@@H]1OCc1ccccc1 | - | 0.1–1 µM |
| C[C@@H]1CCCC[C@H]1n1c(-c2cccs2)nc2cc(C(=O)NC3(C(=O)Nc4ccc(/C=C/C(=O)O)cc4)CCCC3)ccc21 | - | 0.5–5 µM |
| COc1cc(C(=O)N2[C@@H](c3ncc(C)s3)[C@@H](c3cnccn3)C[C@@]2(Cc2ccsn2)C(=O)O)ccc1C(C)(C)C | genotype 1b | <0.1 µM |
| COC(=O)[C@H](Cc1c[nH]c2ccccc12)NC(=O)c1ccc2nc(-c3ccccc3)c(-c3ccccc3)nc2c1 | - | >50 µM |
| CCCC1(CC(=O)O)CCCC2c3ccccc3NC21 | - | >33 µM |
| CC1(C)CC(=O)C2=C(C1)Nc1ccccc1N(C(=O)c1ccccc1)C2c1ccc([N+](=O)[O-])cc1 | - | >32.66 µM |
| O=C(N[C@H](C(=O)O)c1c[nH]c2ccc(O)cc12)c1ccc2c(c1)nc(/C=C/c1cc(O)cc(O)c1)n2C1CCCCC1 | - | 1–5 µM |
| CCC[C@]1(CC(=O)O)OCCc2c1[nH]c1c(C)ccc(C#N)c21 | 9606 genotype 1A | 4.8 µM |
| COc1cc(C(=O)N2[C@@H](c3ncc(C)s3)[C@@H](c3cnccn3)C[C@@]2(Cc2nccs2)C(=O)O)ccc1C(C)(C)C | genotype 1b | <0.1 µM |
| O=C(O)/C(=C/c1ccc(-c2ccccc2Cl)s1)NC(=O)c1ccccc1O | - | <10 µM |
| COc1cc(C(=O)N2[C@@H](c3nccs3)[C@@H](c3cnccn3)C[C@@]2(Cc2ccsn2)C(=O)O)ccc1C(C)(C)C | genotype 1b | <0.1 µM |
| O=C(O)COc1ccc2[nH]cc(C[C@@H](NC(=O)c3ccc4c(c3)nc(-c3ccoc3)n4C3CCCCC3)C(=O)O)c2c1 | - | <1 µM |
| COC(=O)[C@H](Cc1c[nH]c2ccccc12)NC(=O)c1ccc2nc(-c3ccccn3)c(-c3ccccn3)nc2c1 | - | >50 µM |
| COc1cc(C(=O)N2[C@@H](c3nccs3)[C@@H](c3cnccn3)C[C@@]2(CCS)C(=O)O)ccc1C(C)(C)C | Genotype 1A | >1 µM |
| O=C(N[C@@H](CCc1ccc(O)cc1)C(=O)O)c1ccc2c(c1)nc(-c1ccoc1)n2C1CCCCC1 | - | <1 µM |
| NC(=O)[C@H](Cc1c[nH]c2ccccc12)NC(=O)c1ccc2nc(-c3ccc(F)cc3)c(-c3ccc(F)cc3)nc2c1 | - | <10 µM |
| O=C(NC(Cc1c[nH]c2ccc(O)cc12)C(=O)O)c1ccc2c(c1)nc(-c1ccoc1)n2C1CCCCC1 | - | <1 µM |
| C[C@@H](NC(=O)c1ccc2c(c1)nc(-c1ccoc1)n2C1CCCCC1)C(=O)Nc1ccc(C2=CC(=O)OC2)cc1 | - | 0.5–5 µM |
| Nc1ccc(C(=O)N/C(=C\c2ccc(-c3ccccc3Cl)s2)C(=O)O)cc1 | - | 11–30 µM |
| COc1ccc(S(=O)(=O)Nc2cc(C(=O)Nc3ccccc3OCc3ccccc3)n(CC(=O)N[C@H]3CCCC[C@@H]3OCc3ccccc3)n2)cc1 | - | 0.05–0.1 µM |
| CN(C)c1nc(C[C@H](Cc2ccc(OCC(=O)O)cc2)NC(=O)c2ccc3c(c2)nc(-c2ccoc2)n3C2CCCCC2)cs1 | - | 1–5 µM |
| COc1cc(C(=O)N2[C@@H](c3nccs3)[C@@H](c3cnccn3)C[C@@]2(Cc2nccs2)C(=O)O)ccc1C(C)(C)C | genotype 1b | <0.1 µM |
| Cc1cccc(C(=O)N/C(=C\c2ccc(-c3ccccc3Cl)s2)C(=O)O)c1 | - | >30 µM |
| O=C(O)/C=C/c1ccc(NC(=O)CNC(=O)c2ccc3c(c2)nc(-c2ccoc2)n3C2CCCCC2)cc1 | - | <0.5 µM |
| CCN(CC)c1ccc(C2CC(=O)C3=C(C2)Nc2ccccc2N(C(C)=O)C3c2ccccc2)cc1 | - | >42.7 µM |
| Cn1cccc1-c1nc2cc(C(=O)NC3(C(=O)Nc4ccc(/C=C/C(=O)O)cc4)CCCC3)ccc2n1C1C[C@H]2CC[C@@H]1C2 | - | 0.5–5 µM |
| O=C(N[C@H](C(=O)O)c1c[nH]c2ccc(O)cc12)c1ccc2c(c1)nc(C(F)(F)F)n2C1CCCCC1 | - | 1–5 µM |
| CC(=O)Nc1ccc(C(=O)N/C(=C\c2ccc(-c3ccccc3Cl)s2)C(=O)O)cc1 | - | <10 µM |
| O=C(N[C@H](C(=O)O)c1c[nH]c2ccc(O)cc12)c1ccc2c(c1)nc(-c1cn[nH]c1)n2C1CCCCC1 | - | <1 µM |
| Cc1cccc(C(=O)N/C(=C\c2ccc(-c3ccccc3)o2)C(=O)O)c1 | - | 11–30 µM |
| O=C(N[C@@H](Cc1c[nH]c2ccc(O)cc12)C(=O)O)c1ccc2c(c1)nc(-c1ccoc1)n2C1CC2CCC1C2 | - | <1 µM |
| O=C(O)c1ccc2nc(-c3ccccc3)c(-c3ccccc3)nc2c1 | - | <10 µM |
| CCN(CC)c1ccc(C2Nc3cc(C(=O)c4ccccc4)ccc3NC3=C2C(=O)CC(C)(C)C3)cc1 | - | >42.7 µM |
| O=C(O)/C=C/c1ccc(NC(=O)C2(NC(=O)c3ccc4c(c3)nc(-c3cccc5c3OCO5)n4C3CCCC3)CCCC2)cc1 | - | 0.5–5 µM |
| C=CCC(C)(C)c1nc2cc(C(=O)N[C@H](C(=O)O)c3c[nH]c4ccc(O)cc34)ccc2n1C1CCCCC1 | - | 10–25 µM |
| CN(C(=O)Cn1nc(C(=O)Nc2ccccc2-c2ccccc2)cc1C(=O)N[C@H]1CCCC[C@@H]1OCc1ccccc1)[C@H]1CCCC[C@@H]1OCc1ccccc1 | - | ≥1 µM |
| CC(=O)Nc1nc(C[C@H](Cc2ccc(OCC(=O)O)cc2)NC(=O)c2ccc3c(c2)nc(-c2ccoc2)n3C2CCCCC2)cs1 | - | 1–5 µM |
| CCCC1(CC(=O)O)CCCC2c3c(F)ccc(F)c3NC21 | - | >33 µM |
| N#Cc1ccccc1-c1nc2cc(C(=O)N[C@H](C(=O)O)c3c[nH]c4ccc(O)cc34)ccc2n1C1CCCCC1 | - | 1–5 µM |
| O=C(O)/C(=C/c1ccc(-c2ccccc2Cl)s1)NC(=O)c1ccc([N+](=O)[O-])cc1 | - | <10 µM |
| COc1ccc(CNC(=O)c2ccc3c(c2)nc(-c2ccoc2)n3C2CCCCC2)cc1OC | - | <1 µM |
| CCC(C)Oc1ccccc1C1C2=C(CC(c3ccc(OC)c(OC)c3)CC2=O)Nc2ccccc2N1C(C)=O | - | >42.7 µM |
| C[C@H]1CCC[C@H](C)C1n1c(-c2cccc3c2OCO3)nc2cc(C(=O)NC3(C(=O)Nc4ccc(/C=C/C(=O)O)cc4)CCCC3)ccc21 | - | 0.5–5 µM |
| O=C(O)COc1ccc([C@H](NC(=O)c2ccc3c(c2)nc(-c2ccoc2)n3C2CCCCC2)C(=O)O)cc1 | - | <1 µM |

For reference, 8 entries again:

smiles,strain or isolate,result
C=CCC(C)(C)c1nc2cc(C(=O)N[C@H](C(=O)O)c3c[nH]c4ccc(O)cc34)ccc2n1C1CCCCC1,-,10–25 µM
N#Cc1ccccc1-c1nc2cc(C(=O)N[C@H](C(=O)O)c3c[nH]c4ccc(O)cc34)ccc2n1C1CCCCC1,-,1–5 µM
CC(=O)Nc1ccc(C(=O)N/C(=C\c2ccc(-c3ccccc3)o2)C(=O)O)cc1,-,11–30 µM
COC(=O)[C@H](Cc1c[nH]c2ccccc12)NC(=O)c1ccc2nc(-c3ccccc3)c(-c3ccccc3)nc2c1,-,>50 µM
Cc1cccc(C(=O)N/C(=C\c2ccc(-c3ccccc3Cl)s2)C(=O)O)c1,-,>30 µM
COc1cc(C(=O)N2[C@@H](c3nccs3)[C@@H](c3cnccn3)C[C@@]2(Cc2nccs2)C(=O)O)ccc1C(C)(C)C,genotype 1b,<0.1 µM
CCN(CC)c1ccc(C2CC(=O)C3=C(C2)Nc2ccccc2N(C(C)=O)C3c2ccccc2)cc1,-,>42.7 µM
CCC[C@]1(CC(=O)O)OCCc2c1[nH]c1c(C)ccc(C#N)c21,9606 genotype 1A,4.8 µM

a–b is a range or a potency band. Blank or dashed fields: not listed here. ICn: concentration for n% inhibition.